The data set concerns HIV-1. The data set can be described thus: Protocol-defined virologic failure and drug resistance testing (GenoSure MG, PhenoSense). The data set is classed as in vivo, HIV-1-infected adults. The text has this:
PDVF was defined as either: (1) confirmed HIV-1 RNA ≥40 copies/mL at any time after prior confirmed suppression to <40 copies/mL; or (2) a confirmed >1 log10 copies/mL above the nadir level. Genotypic information required for screening was generated using the GenoSure® MG assay; genotypic information and phenotypic observations during the treatment period were generated using the PhenoSense® combination resistance test.

Data on 2 compounds can be found in publication PMC6198970, “Safety, efficacy, and dose response of the maturation inhibitor GSK3532795 (formerly known as BMS-955176) plus tenofovir/emtricitabine once daily in treatment-naive HIV-1-infected adults: Week 24 primary analysis from a randomized Phase IIb trial” (PLoS ONE, 2018).

Entries after “also recorded” stand apart in the source; their conditions may differ.

Take `O=C1Nc2ccc(Cl)cc2[C@@](C#CC2CC2)(C(F)(F)F)O1` [EFV, efavirenz, reference compound]: the “Emergent NRTI, NNRTI or PI mutations” value (EFV arm, only participant with on-treatment resistance testing) is listed as “did not have any nucleoside reverse transcriptase inhibitor (NRTI)/non-NRTI mutations; also recorded: no emergent NRTI, NNRTI, or PI mutations; also recorded: no treatment-emergent resistance”.

On to `C=C(C)[C@@H]1CC[C@]2(NCCN3CCS(=O)(=O)CC3)CC[C@]3(C)[C@H](CC[C@@H]4[C@@]5(C)CC=C(c6ccc(C(=O)O)cc6)C(C)(C)[C@@H]5CC[C@]43C)[C@@H]12` [GSK3532795], for which the “Treatment-emergent RT/NRTI substitutions” value reads like this: (60 mg, N = 5 tested, 5 sequenced) 3/5; (120 mg, N = 6 tested, 5 sequenced) 5/5; (180 mg, N = 4 tested, 2 sequenced) 2/2. Moreover, where the note is “GSK3532795 arms pooled, of those meeting resistance testing criteria”, the “Participants with emergent substitutions at reverse transcriptase positions M184” value was 10/15.
